The values below come from publication PMC8669466.

Series [1] deals with T1, H-NS (UniProt P0ACF8).
T1 sequence (looked up, limits assumed): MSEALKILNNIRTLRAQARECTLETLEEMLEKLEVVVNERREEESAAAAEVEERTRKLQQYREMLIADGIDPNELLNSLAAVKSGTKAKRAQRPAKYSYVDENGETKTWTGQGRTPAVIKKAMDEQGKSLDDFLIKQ
Put plainly: DNase I footprinting. The note with it: 3.4 uM H-NS, 0.2 mM CaCl2, 2.5 mM MgCl2; recombinant protein; label: 5'-FAM on forward primer; probe letters rebuilt from the primers and the genome.

The target of series [2] is T1, H-NS. Put plainly: EMSA. The note with it: H-NS 0-200 nM, DNA 1 nM; EMSA: 20 mM Tris-HCl pH 7.5, 80 mM NaCl, 0.1 mM EDTA, 1 mM DTT, 10% glycerol, 37 C, 30 min; footprinting in EMSA buffer + 0.2 mM CaCl2, 2.5 mM MgCl2, DNase I at 25 C; recombinant protein; probe letters rebuilt from the primers and the genome.

For at least one entry, the source does not settle the construct or the ends of the probe. Tags and fusion partners may be left off the protein sequences shown.

On to “TCTCTCCAGGGGCATTTGAAAAAATTGGGCCGATTATTCGCGCAACGCTAAACAGATAAATTAACATTATCTATAACCCCATAATTGCAGGAAATAATTATGGGTTTATCATTTATTTAATTTATAAGTTTGCTGGTTATTTTTCTTAAATAGAGTGAATGTTGCATTCAGTGGAATGAATTTACAAACTTCAGCTTCGGATAATTCTCACCAACTGGTAAAGTGAGCGCCGTGGAGATTTCCCCCTATTGGACTCATTTTCAGGTTATACCCCATGTCATCACTGAATATTAAACAGGGAAGTGACGCTCATTTTCCCGATTATCCTCTGGCGTCGCCCAGTAATAATGAAATTGATTTACTTAATCTAATCTCAGTTTTATGGCGGGCCAAAAAAACGGTCATGGCGGTCGTTTTTGCGTTTGCC (double strand) [fepE promoter PCR fragment, FAM-labelled]”, for which, in the series with H-NS [1], the binding result is “binds”.

For the sequence “TCTCTCCAGGGGCATTTGAAAAAATTGGGCCGATTATTCGCGCAACGCTAAACAGATAAATTAACATTATCTATAACCCCATAATTGCAGGAAATAATTATGGGTTTATCATTTATTTAATTTATAAGTTTGCTGGTTATTTTTCTTAAATAGAGTGAATGTTGCATTCAGTGGAATGAATTTACAAACTTCAGCTTCGGATAATTCTCACCAACTGGTAAAGTGAGCGCCGTGGAGATTTCCCCCTATTGGACTCATTTTCAGGTTATACCCCATGTCATCACTGAATATTAAACAGGGAAGTGACGCTCATTTTCCCGATTATCCTCTGGCGTCGCCCAGTAATAATGAAATTGATTTACTTAATCTAATCTCAGTTTTATGGCGGGCCAAAAAAACGGTCATGGCGGTCGTTTTTGCGTTTGCC (double strand) [fepE promoter PCR fragment]”, the binding result with H-NS [2] was “binds”.
